# Results from publication PMC2852069 (Indian Journal of Pharmaceutical Sciences, 2008).
# Tested on: Huh 5-2 cells
substance,measurement,value
Interferon alfa-2b,cytostatic activity,* % untreted control. Interferon alfa-2b at 10.000 units/well reduced the signal in the viral RNA (luciferase) assay to background levels; without any cytostatic activity
